From patent US11185524B2 (Novus International, Inc., priority 2019, dated 2021)

Test system: microbial population
Assay: Gas production during in vitro rumen fluid incubation (ANKOM RF Gas Production System)
Set-up: species or system Holstein steers (rumen fluid donors)

CSCCC(O)C(=O)O (stereo not drawn) [MHA, Methionine hydroxy analog]
Gas produced (Experiment 1, 1 h): 22.41 mL | Gas produced (Experiment 1, 3 h): 60.40 mL | Gas produced (Experiment 1, 6 h): 122.2 mL | Gas produced (Experiment 1, 12 h): 138.5 mL | Gas produced (Experiment 2, 1 h): 2.24 mL | Gas produced (Experiment 2, 3 h): 20.25 mL | Gas produced (Experiment 2, 6 h): 40.49 mL | Gas produced (Experiment 2, 12 h): 65.86 mL

CSCCC1OC(=O)C(CCSC)OC1=O (stereo not drawn) [Cyclic Dimer, 3,6-bis(2-methylthio)ethyl-1,4-dioxane-2,5-dione]
Gas produced (Experiment 1, 1 h): 24.68 mL | Gas produced (Experiment 1, 3 h): 69.16 mL | Gas produced (Experiment 1, 6 h): 105.4 mL | Gas produced (Experiment 1, 12 h): 129.9 mL
